# Primary screen of a compound library

Source: ChEMBL document CHEMBL3988442, “University of Dundee, Small-Polar-MMV Screening Library” (2021).

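Whole-cell growth test on Mycobacterium tuberculosis, read after 3 days in glucose-containing 7H9 medium; the read-out is not stated. Compounds at 500 µM. Direction is inferred from retests: higher values go with more growth inhibition. Of about 18,000 compounds tested this way, about 1,400 (7.9%) reached 50% or more in at least one test.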

Results are given as percent effect. How 0% and 100% were set is not recorded. Most values in the screen are low, and negative values occur. Many other results are left out here, so strong results are more common than in the screen.

| compound | Percent Effect |
|---|---|
| `CS(=O)(=O)N1CCC(COCc2ccccc2)C1` (stereo unspecified) | 67.25% |
| `COCCN1CCN(Cc2cc(C(C)(C)C)[nH]n2)CC1` | 12.79% |
| `CN(Cc1ccncc1)S(=O)(=O)c1ccc(C#N)cc1` | 38.72% |
| `O=C(NCc1[nH]ncc1Br)Nc1nc2c(s1)COCC2` | 69.48% |
| `N#Cc1ccc(OCC(O)CN2CCC(O)CC2)cc1` (stereo unspecified) | 3.434% |
| `Nc1nccnc1C(=O)N(CC1CC1)c1ccccc1` | 1.849% |
| `CC1CN(C)CCN1CC(=O)NC(N)=O` (stereo unspecified) | 9.489% |
| `NCC(O)CN1CCc2ccccc2C1` (stereo unspecified) | 28.61% |
| `COCC(=O)NC(Cc1ccccc1)[C@H]1C[C@H](O)C1` (stereo partly specified) | 18.11% |
| `C[C@H](CO)N(CCCC#N)Cc1ccccc1` | -7.976% |
| `CCNC(=O)CNc1cc(C)c(Cl)cc1OC` | 56.67% |
| `CN(C)[C@@H]1C[C@@H](CO)N(C(=O)c2ccc(Cl)s2)C1` | 8.228% |
| `O=C(CCn1cccn1)N1CCN(c2nccs2)CC1` | 30.95% |
| `CCN(C)C(=O)c1ccc(-n2cncn2)cc1` | 6.876% |
| `CN(C(=O)CN)c1ccc(-c2ccccc2)cc1` | 82.28% |
| `Cc1cccc(NC(=O)NCc2c(C)noc2C)n1` | 53.53% |
| `Cc1occc1C(=O)NCC(CO)Cc1cccs1` (stereo unspecified) | 69.36% |
| `c1ccc(-c2noc(C3CCCO3)n2)nc1` (stereo unspecified) | 11.22% |
| `Cc1noc(C)c1CNC1CCN(S(C)(=O)=O)CC1` | -6.628% |
| `CN1C(=O)Cc2cc(C(=O)NCc3ccco3)ccc21` | 17.4% |
| `Cc1csc(N2CCCN(C(=O)c3cnsn3)CC2)n1` | 51.92% |
| `CCCNC(=O)C1CCN(C(=O)c2cc(Cl)c[nH]2)CC1` | 23.78% |
| `COCc1nc(C(=O)NC2CCN(C)C2=O)cs1` (stereo unspecified) | 4.781% |
| `O=C(Nc1nncs1)c1ccccn1` | 73.71% |
| `O=C(NCC(O)c1cccs1)NC1CCOCC1` (stereo unspecified) | -5.047% |
| `O=C(c1cnc[nH]1)N1CCC(O)(CN2CCCC2)CC1` | -6.682% |
| `CC(C)Oc1ccc(C(O)CN)cc1` (stereo unspecified) | 15.44% |
| `CCC(N)c1ccccc1OC` (stereo unspecified) | 50.19% |
| `NCc1nc(-c2ccsc2)no1` | 1.023% |
| `COc1ccc(C(N)c2ccc(OC)cc2OC)cc1` (stereo unspecified) | 104.8% |
| `C/C=C/c1ccc(OCCN2CCNCC2)c(OC)c1` | 49.52% |
| `CC(C)C(=O)NCc1ccc(F)cc1` | 14.09% |
| `CC(C)OCCC1(N)CC1` | 15.29% |
| `Cc1cccnc1CSc1nnnn1CC1CCCO1` (stereo unspecified) | 36.95% |
| `Cc1cc(C)c(C(=O)NCC(O)C2CCCC2)c(=O)[nH]1` (stereo unspecified) | -19.63% |
| `CC(=O)NCCNC(=O)N1CCc2sccc2C1` | 9.811% |
| `CC(=O)Nc1ccc(C(=O)Nc2nnc(C)s2)cc1` | 4.176% |
| `CC(C)C1c2nccn2CCCN1C(=O)c1cnco1` (stereo unspecified) | 2.747% |
| `CC(=O)N(C)c1ccc(S(N)(=O)=O)cc1` | 0.296% |
| `CN1CCCC(N2C(=O)c3ccccc3C2=O)C1=O` (stereo unspecified) | 7.084% |
| `CCN1C[C@H](NC(=O)c2cccn2C(C)C)[C@@H](OC)C1` | 25.6% |
| `c1ccn2c(CC3CCCNC3)nnc2c1` (stereo unspecified) | -5.655% |
| `NCCNS(=O)(=O)c1cccc(I)c1` | 50.85% |
| `CCC(Nc1cccc(OC)c1)C(=O)NCCCN` (stereo unspecified) | 44.44% |
| `COC(=O)c1cc(C)sc1N1C(=O)C=CC1=O` | 4.179% |
| `CCOCC(=O)NCC1(O)CCCc2ccccc21` (stereo unspecified) | 59.88% |
| `NC1CCNC2(CCC2)C1` (stereo unspecified) | -1.53% |
| `CC(C)c1cccc(NC(=O)CN2CCN(C)CC2)c1` | 46.1% |
| `NCCOc1ccc2ccccc2n1` | 69.09% |
| `CC(=O)c1cccc(OCC(=O)Nc2cc(C)on2)c1` | -10.33% |
| `CNc1cc(C(=O)N2CCCC(NC(C)=O)C2)ccn1` (stereo unspecified) | 9.19% |
| `CN(C)CCCOc1ccc(CN)cc1` | 23.84% |
| `COc1cccc(C(=O)N2CCCNCC2)c1` | 3.875% |
| `CNCC1(CO)CCCC1` | -11.64% |
| `Cc1nn(CCNCCS(C)(=O)=O)c(C)c1Br` | 8.548% |
| `COc1cccc(CCN)n1` | 74.52% |
| `Cc1nnc(SCC=Cc2ccccc2)n1CC(N)=O` | 5.925% |
| `COc1cc(NC(=O)NCc2nncn2C)ccc1Br` | 54.48% |
| `CCCC(=O)Nc1nnc(-c2ccccn2)s1` | 0.1933% |
| `Cc1cc(C)nc(CN(C)CCC(=O)NC(C)C)c1` | 6.934% |
| `CC(C)NC1CCOCC1` | 4.324% |

8 of the entries, repeated:

Result for COc1cccc(CCN)n1 was 74.52%.
Result for c1ccc(-c2noc(C3CCCO3)n2)nc1 (stereo unspecified) was 11.22%.
Result for CC1CN(C)CCN1CC(=O)NC(N)=O (stereo unspecified) was 9.489%.
Result for CS(=O)(=O)N1CCC(COCc2ccccc2)C1 (stereo unspecified) was 67.25%.
Result for NCCNS(=O)(=O)c1cccc(I)c1 was 50.85%.
Result for COCCN1CCN(Cc2cc(C(C)(C)C)[nH]n2)CC1 was 12.79%.
Result for O=C(Nc1nncs1)c1ccccn1 was 73.71%.
Result for CNc1cc(C(=O)N2CCCC(NC(C)=O)C2)ccn1 (stereo unspecified) was 9.19%.